Compound potency records, mixed from different reports. Data source: NIAID ChemDB in PubChem.

Common to all: enzyme or target tests; organism: HIV-1; protein: Reverse transcriptase

Conditions beyond the fields shown may differ between rows. a–b is a range or a potency band. ICn: concentration for n% inhibition. An empty or dashed field is not shown.

SMILES,measure,changes,strain or isolate,read by,result
Cc1c(Cc2c(Cl)cccc2Cl)nc(SCc2ccc(Cl)cc2)[nH]c1=O,IC50,RT-K103N,-,nucleotide incorporation / radiometric,>400 µM
O=C(OC[C@H]1O[C@@H](n2cc(C(=O)Nc3ccc(Cl)cc3)c(=O)c3cc(Cl)ccc32)[C@H](OC(=O)c2ccccc2)[C@@H]1OC(=O)c1ccccc1)c1ccccc1,IC50,-,HXB2,ELISA / nucleotide incorporation,8.8 µM
Cc1c(Sc2ccccc2)n(COCCOP(=O)(O)OP(=O)(O)OP(=O)(O)O)c(=O)[nH]c1=O,IC50,-,IIIB,nucleotide incorporation,>250 µM
CC(C)=CCOc1cc(NC(=S)c2ccsc2C)ccc1Cl,IC50,-,-,-,0.02 µg/mL
CCCCN(C)C(=O)Oc1nsnc1-c1c(Cl)cccc1Cl,IC50,-,IIIB,nucleotide incorporation,4.5 µM
Cc1occc1C(=S)Nc1ccc(Cl)c(/C=N/OC(C)(C)C)c1,IC50,-,-,-,0.1 µg/mL
Cc1cn([C@H]2C[C@H](N=[N+]=[N-])[C@@H](COP(=O)(O)OP(=O)(O)CP(=O)(O)O)O2)c(=O)[nH]c1=O,IC50,-,-,RT activity,6.95 µM
Cc1c(Cc2c(Cl)cccc2Cl)nc(SCc2ccc(C#N)cc2)[nH]c1=O,IC50,RT-K103N,-,nucleotide incorporation / radiometric,>400 µM
CN1C(=O)NC(=O)C1Cc1ccc(Br)c(Oc2cc(Cl)cc(C#N)c2)c1F,IC50,NNRTI-resistant (RT K103N/Y181C),K103N/Y181C,scintillation proximity / radiometric,0.007 µM
COc1cc(CSc2nc(Cc3c(F)cccc3F)c(C)c(=O)[nH]2)cc(OC)c1,IC50,-,WT,nucleotide incorporation / radiometric,>400 µM
CC(=O)C1(c2ccccc2)C(=O)C=C2N(C1=O)c1ccc(Cl)cc1C2(C)C,IC50,-,RF,nucleotide incorporation / radiometric,10 µM
Nc1ncnc2c1ncn2[C@H]1CC[C@@H](COP(=O)(O)OP(=O)(O)OP(=O)(O)O)O1,Ki,-,-,nucleotide incorporation,0.166 µM
COc1ccc(CSc2nc(Cc3c(Cl)cccc3Cl)c(C)c(=O)[nH]2)cc1OC,IC50,RT-K103N,-,nucleotide incorporation / radiometric,>400 µM
O=C(O)c1ccc2ccc(/C=C/c3cc(O)c(O)c(O)c3)nc2c1O,IC50,-,-,-,>100 µM
Nc1ncnc2c1ncn2CC(CF)OCP(=O)(O)OP(=O)(O)OP(=O)(O)O,IC50,-,-,nucleotide incorporation,0.017 µM
O=C1c2ccccc2C2(c3ccccc3)SCCN12,IC50,RT-K103N,IIIB,ELISA,88 µM
CCN(C)C(=O)Oc1nsnc1-c1c(Cl)cccc1Cl,IC50,-,IIIB,nucleotide incorporation,0.16 µM
N#Cc1cc(Cl)cc(Oc2c(Br)ccc(Cn3c(=O)[nH]c4nnccc43)c2F)c1,IC50,NNRTI-resistant (RT K103N/Y181C),K103N/Y181C,scintillation proximity / radiometric,0.004 µM
CN(C)C(=O)Oc1nsnc1-c1c(Cl)cccc1Cl,IC50,RT-Y181C,IIIB-R (RT-Y181C),nucleotide incorporation,>200 µM
CCCCC1C(=O)C=C2N(C1=O)c1ccccc1C2(C)C,IC50,-,RF,nucleotide incorporation / radiometric,>100 µM
O=C(O)[C@H]1O[C@@H](Oc2cc3oc(-c4ccccc4)cc(=O)c3c(O)c2O)[C@H](O)[C@@H](O)[C@@H]1O,Ki,-,LAV,-,1.5 µM
c1ccc(C2SCc3nc4ccccc4n32)cc1,IC50,RT-H221Y,-,-,>50 µM
CCCCC1(O)C(=O)C=C2N(C1=O)c1ccccc1C2(C)C,IC50,-,RF,nucleotide incorporation / radiometric,>100 µM
NC(=O)c1[nH]cnc1-c1ccc(Cl)c(Br)c1,IC50,-,-,fluorescence,>41 µM
CN(C)P(=O)(c1ccccc1)c1c(C(N)=O)[nH]c2ccc(Cl)cc12,IC50,RT-K103N,-,-,>3.57 µM
O=C(O[C@@H]1Cc2c(O)cc(O)cc2O[C@@H]1c1ccc(O)c(O)c1)c1cc(O)c(O)c(O)c1,IC50,-,-,-,0.02 µM
N#Cc1cc(Cl)cc(Oc2c(Br)ccc(Cn3c(=O)[nH]c4ncccc43)c2F)c1,IC50,NNRTI-resistant (RT K103N/Y181C),K103N/Y181C,scintillation proximity / radiometric,0.005 µM
CC(C)=CCN1Cc2cccc3[nH]c(=S)n(c23)C[C@@H]1C,IC50,-,IIIB,nucleotide incorporation,0.525 µM
CCCN(C)C(=O)Oc1nsnc1-c1c(Cl)cccc1Cl,IC50,-,IIIB,nucleotide incorporation,0.53 µM
CC(C)=CCn1cc2c(c1)S(=O)(=O)c1cc(Cl)ccc1NC2=O,IC50,-,-,nucleotide incorporation / radiometric,1.8–2.4 µM
Cc1c(Cc2ccc(F)cc2)nc(SCc2ccc([N+](=O)[O-])cc2)[nH]c1=O,IC50,RT-181I,-,nucleotide incorporation / radiometric,>400 µM
CCOC(=O)c1cn(C)cc1S(=O)(=O)c1cc(Cl)ccc1N,IC50,-,-,nucleotide incorporation / radiometric,7.8–10.4 µM
Cc1c(Cc2c(Cl)cccc2Cl)nc(SCc2ccc(F)cc2)[nH]c1=O,IC50,RT-K103N,-,nucleotide incorporation / radiometric,>400 µM
N#Cc1cc(Cl)cc(Oc2c(Br)ccc(Cn3c(=O)[nH]c4cnccc43)c2F)c1,IC50,NNRTI-resistant (RT K103N/Y181C),K103N/Y181C,scintillation proximity / radiometric,0.004 µM

A second listing of 5 rows from above:

SMILES | measure | changes | strain or isolate | read by | result
O=C(O)c1ccc2ccc(/C=C/c3cc(O)c(O)c(O)c3)nc2c1O | IC50 | - | - | - | >100 µM
N#Cc1cc(Cl)cc(Oc2c(Br)ccc(Cn3c(=O)[nH]c4cnccc43)c2F)c1 | IC50 | NNRTI-resistant (RT K103N/Y181C) | K103N/Y181C | scintillation proximity / radiometric | 0.004 µM
CC(C)=CCn1cc2c(c1)S(=O)(=O)c1cc(Cl)ccc1NC2=O | IC50 | - | - | nucleotide incorporation / radiometric | 1.8–2.4 µM
CC(C)=CCN1Cc2cccc3[nH]c(=S)n(c23)C[C@@H]1C | IC50 | - | IIIB | nucleotide incorporation | 0.525 µM
CCOC(=O)c1cn(C)cc1S(=O)(=O)c1cc(Cl)ccc1N | IC50 | - | - | nucleotide incorporation / radiometric | 7.8–10.4 µM